Source: US20070049564A1 (Wyeth, priority 2005, published 2007)
“And” between values parts separate entries of the source, which are not always exact repeats. Identical values can stand only once.

Assays:
Test in all cases: MIC, broth microdilution
S. cholerasius GC 1355 = tested on: S. cholerasius GC 1355
Salmonella spp. GC 235 = tested on: Salmonella spp. GC 235
Salmonella spp. GC 566 = tested on: Salmonella spp. GC 566

Compound	MINIMAL INHIBITORY CONCENTRATION MIC (S. cholerasius GC 1355; pre-incubated in Mouse Serum)	MINIMAL INHIBITORY CONCENTRATION MIC (S. cholerasius GC 1355; pre-incubated in Water) [UG/ML]	MINIMAL INHIBITORY CONCENTRATION MIC (Salmonella spp. GC 235; pre-incubated in Mouse Serum) [UG/ML]	MINIMAL INHIBITORY CONCENTRATION MIC (Salmonella spp. GC 235; pre-incubated in Water) [UG/ML]	MINIMAL INHIBITORY CONCENTRATION MIC (Salmonella spp. GC 566; pre-incubated in Mouse Serum)	MINIMAL INHIBITORY CONCENTRATION MIC (Salmonella spp. GC 566; pre-incubated in Water) [UG/ML]	MINIMAL INHIBITORY CONCENTRATION MIC (S. cholerasius GC 1355; pre-incubated in Human Serum) [UG/ML]	MINIMAL INHIBITORY CONCENTRATION MIC (Salmonella spp. GC 235; pre-incubated in Human Serum) [UG/ML]	MINIMAL INHIBITORY CONCENTRATION MIC (Salmonella spp. GC 566; pre-incubated in Human Serum) [UG/ML]
CCCCN(CC(=O)Nc1cc(N(C)C)c2c(c1O)C(=O)C1=C(O)[C@]3(O)C(=O)C(C(N)=O)=C(O)[C@@H](N(C)C)[C@@H]3C[C@@H]1C2)C(=O)OCOC(=O)c1ccc(-c2ccccc2)cc1 [Example 21, ({[(2-{[(5aR,6aS,7S,10aS)-9-(aminocarbonyl)-4,7-bis(dimethylamino)-1,8,10a,11-tetrahydroxy-10,12-dioxo-5,5a,6,6a,7,10,10a,12-octahydrotetracen-2-yl]amino}-2-oxoethyl)(butyl)amino]carbonyl}oxy)methyl 1,1′-biphenyl-4-carboxylate]	16 UG/ML	>64	2	>64	4 UG/ML	>64	–	–	–
CCCCN(CC(=O)Nc1cc(N(C)C)c2c(c1O)C(=O)C1=C(O)[C@]3(O)C(=O)C(C(N)=O)=C(O)[C@@H](N(C)C)[C@@H]3C[C@@H]1C2)C(=O)OCOC(=O)c1cc(C)cc(C)c1 [Example 22, ({[(2-{[(5aR,6aS,7S,10aS)-9-(aminocarbonyl)-4,7-bis(dimethylamino)-1,8,10a,11-tetrahydroxy-10,12-dioxo-5,5a,6,6a,7,10,10a,12-octahydrotetracen-2-yl]amino}-2-oxoethyl)(butyl)amino]carbonyl}oxy)methyl 3,5-dimethylbenzoate]	16 UG/ML	>64	2	>64	4 UG/ML	>64	–	–	–
CCCCN(CC(=O)Nc1cc(N(C)C)c2c(c1O)C(=O)C1=C(O)[C@]3(O)C(=O)C(C(N)=O)=C(O)[C@@H](N(C)C)[C@@H]3C[C@@H]1C2)C(=O)OCOC(=O)c1cccs1 [Example 23, ({[(2-{[(5aR,6aS,7S,10aS)-9-(aminocarbonyl)-4,7-bis(dimethylamino)-1,8,10a,11-tetrahydroxy-10,12-dioxo-5,5a,6,6a,7,10,10a,12-octahydrotetracen-2-yl]amino}-2-oxoethyl)(butyl)amino]carbonyl}oxy)methyl thiophene-2-carboxylate]	16 UG/ML	>64	2	>64	4 UG/ML	>64	–	–	–
CCCN(CC(=O)Nc1cc(N(C)C)c2c(c1O)C(=O)C1=C(O)[C@]3(O)C(=O)C(C(N)=O)=C(O)[C@@H](N(C)C)[C@@H]3C[C@@H]1C2)C(=O)OCOC(=O)c1ccc(-c2ccccc2)cc1 [Example 24, ({[(2-{[(5aR,6aS,7S,10aS)-9-(aminocarbonyl)-4,7-bis(dimethylamino)-1,8,10a,11-tetrahydroxy-10,12-dioxo-5,5a,6,6a,7,10,10a,12-octahydrotetracen-2-yl]amino}-2-oxoethyl)(propyl)amino]carbonyl}oxy)methyl 1,1′-biphenyl-4-carboxylate]	32 UG/ML	>64	1	>64	2 UG/ML	>64	–	–	–
CCCN(CC(=O)Nc1cc(N(C)C)c2c(c1O)C(=O)C1=C(O)[C@]3(O)C(=O)C(C(N)=O)=C(O)[C@@H](N(C)C)[C@@H]3C[C@@H]1C2)C(=O)OCOC(=O)c1cccs1 [Example 25, ({[(2-{[(5aR,6aS,7S,10aS)-9-(aminocarbonyl)-4,7-bis(dimethylamino)-1,8,10a,11-tetrahydroxy-10,12-dioxo-5,5a,6,6a,7,10,10a,12-octahydrotetracen-2-yl]amino}-2-oxoethyl)(propyl)amino]carbonyl}oxy)methyl thiophene-2-carboxylate]	32 UG/ML	>64	2	>64	4 UG/ML	>64	–	–	–
CCCN(CC(=O)Nc1cc(N(C)C)c2c(c1O)C(=O)C1=C(O)[C@]3(O)C(=O)C(C(N)=O)=C(O)[C@@H](N(C)C)[C@@H]3C[C@@H]1C2)C(=O)OCOC(=O)c1cc(C)cc(C)c1 [Example 26, ({[(2-{[(5aR,6aS,7S,10aS)-9-(aminocarbonyl)-4,7-bis(dimethylamino)-1,8,10a,11-tetrahydroxy-10,12-dioxo-5,5a,6,6a,7,10,10a,12-octahydrotetracen-2-yl]amino}-2-oxoethyl)(propyl)amino]carbonyl}oxy)methyl 3,5-dimethylbenzoate]	32 UG/ML	>64	2	>64	4 UG/ML	>64	–	–	–
CCCN(CC(=O)Nc1cc(N(C)C)c2c(c1O)C(=O)C1=C(O)[C@]3(O)C(=O)C(C(N)=O)=C(O)[C@@H](N(C)C)[C@@H]3C[C@@H]1C2)C(=O)OCOC(=O)c1ccsc1 [Example 27, ({[(2-{[(5aR,6aS,7S,10aS)-9-(aminocarbonyl)-4,7-bis(dimethylamino)-1,8,10a,11-tetrahydroxy-10,12-dioxo-5,5a,6,6a,7,10,10a,12-octahydrotetracen-2-yl]amino}-2-oxoethyl)(propyl)amino]carbonyl}oxy)methyl thiophene-3-carboxylate]	16 UG/ML	>64	1	>64	1 UG/ML	>64	–	–	–
CCCN(CC(=O)Nc1cc(N(C)C)c2c(c1O)C(=O)C1=C(O)[C@]3(O)C(=O)C(C(N)=O)=C(O)[C@@H](N(C)C)[C@@H]3C[C@@H]1C2)C(=O)OCOC(=O)c1ccc(C(C)(C)C)cc1 [Example 28, ({[(2-{[(5aR,6aS,7S,10aS)-9-(aminocarbonyl)-4,7-bis(dimethylamino)-1,8,10a,11-tetrahydroxy-10,12-dioxo-5,5a,6,6a,7,10,10a,12-octahydrotetracen-2-yl]amino}-2-oxoethyl)(propyl)amino]carbonyl}oxy)methyl 4-tert-butylbenzoate]	16 UG/ML	>64	0.50	>64	2 UG/ML	>64	–	–	–
CN(C)c1cc(NC(=O)CN(C(=O)OCOC(=O)CC(C)(C)C)C(C)(C)C)c(O)c2c1C[C@H]1C[C@H]3[C@H](N(C)C)C(O)=C(C(N)=O)C(=O)[C@@]3(O)C(O)=C1C2=O [Example 42, ({[(2-{[(5aR,6aS,7S,10aS)-9-(aminocarbonyl)-4,7-bis(dimethylamino)-1,8,10a,11-tetrahydroxy-10,12-dioxo-5,5a,6,6a,7,10,10a,12-octahydrotetracen-2-yl]amino}-2-oxoethyl)(tert-butyl)amino]carbonyl}oxy)methyl 3,3-dimethylbutanoate]	64 UG/ML and >64 UG/ML	>64	–	>64	32 UG/ML and >64 UG/ML	>64	–	–	–
CN(C)c1cc(NC(=O)CN(C(=O)OCOC(=O)c2ccc(C(C)(C)C)cc2)C(C)(C)C)c(O)c2c1C[C@H]1C[C@H]3[C@H](N(C)C)C(O)=C(C(N)=O)C(=O)[C@@]3(O)C(O)=C1C2=O [Example 43, ({[(2-{[(5aR,6aS,7S,10aS)-9-(aminocarbonyl)-4,7-bis(dimethylamino)-1,8,10a,11-tetrahydroxy-10,12-dioxo-5,5a,6,6a,7,10,10a,12-octahydrotetracen-2-yl]amino}-2-oxoethyl)(tert-butyl)amino]carbonyl}oxy)methyl 4-tert-butylbenzoate]	4 UG/ML	>64	0.50	>64	2 UG/ML	>64	>64	>64	>64
